Results on 1 substance are retold here after paper PMC2852069 (Indian Journal of Pharmaceutical Sciences, 2008).

The test system of this series is Huh 5-2 cells.

As to Interferon alfa-2b, the cytostatic activity entry is reported as “* % untreted control. Interferon alfa-2b at 10.000 units/well reduced the signal in the viral RNA (luciferase) assay to background levels; without any cytostatic activity”.
